Values from PubChem BioAssay AID624099 (ICCB-Longwood, 2012).
Aim: 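Knock-downs relieving repression by E2 of an HPV18 LCR luciferase reporter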 (primary screen). Cells: human C33A cervical carcinoma cells (HPV-negative) stably expressing BPV1 E2 and an HPV18 LCR luciferase reporter. Reagent: siRNA pool against human genes, 40 nM. Timing: 72 h. Detection: 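HPV18 LCR reporter light per well, converted to plate-wise z-scores that exclude control wells, and averaged over triplicate plates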. Direction: mean z-score and z-score: higher = stronger reporter signal, weaker E2 silencing. Hit rule: 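Hit if mean z-score reaches 2 and two or more of three replicate z-scores also reach 2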.
Shown is a random part of about 21,000 deposited reagents. 497 of all reagents (2.4%) were called active. 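Higher z means weaker E2 silencing; only reporter increases were scored, and knock-downs that hurt cell survival may mask genuine repressor factors.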

{"Target gene": "OR5B3", "mean z-score": -3.6, "z-score, replicate A": -4.03, "z-score, replicate B": -3.38, "z-score, replicate C": -3.4, "activity call": "inactive"}
{"Target gene": "SLC6A4", "mean z-score": 0.27, "z-score, replicate A": -0.02, "z-score, replicate B": 0.54, "z-score, replicate C": 0.29, "activity call": "inactive"}
{"Target gene": "WDR45B", "mean z-score": 0.98, "z-score, replicate A": 0.94, "z-score, replicate B": 1.11, "z-score, replicate C": 0.88, "activity call": "inactive"}
{"Target gene": "MROH9", "mean z-score": -0.03, "z-score, replicate A": -0.03, "z-score, replicate B": -0.11, "z-score, replicate C": 0.06, "activity call": "inactive"}
{"Target gene": "ZNF219", "mean z-score": -0.04, "z-score, replicate A": 0.32, "z-score, replicate B": -0.39, "z-score, replicate C": -0.05, "activity call": "inactive"}
{"Target gene": "TPI1", "mean z-score": 0.19, "z-score, replicate A": -0.14, "z-score, replicate B": 0.71, "z-score, replicate C": 0, "activity call": "inactive"}

Part of the list above in another layout.
Target gene	mean z-score	z-score, replicate A	z-score, replicate B	z-score, replicate C	activity call
ZNF219	-0.04	0.32	-0.39	-0.05	inactive
TPI1	0.19	-0.14	0.71	0	inactive

Continued.
{"Target gene": "CYP2U1", "mean z-score": 0.38, "z-score, replicate A": 0.31, "z-score, replicate B": 0.2, "z-score, replicate C": 0.62, "activity call": "inactive"}
{"Target gene": "TUBB", "mean z-score": -0.39, "z-score, replicate A": -0.25, "z-score, replicate B": -0.49, "z-score, replicate C": -0.42, "activity call": "inactive"}
{"Target gene": "SEC11C", "mean z-score": -0.53, "z-score, replicate A": -0.51, "z-score, replicate B": -0.47, "z-score, replicate C": -0.62, "activity call": "inactive"}
{"Target gene": "TRIM67", "mean z-score": -0.83, "z-score, replicate A": -0.87, "z-score, replicate B": -1.15, "z-score, replicate C": -0.46, "activity call": "inactive"}
{"Target gene": "MAGIX", "mean z-score": -0.31, "z-score, replicate A": -0.13, "z-score, replicate B": -0.33, "z-score, replicate C": -0.46, "activity call": "inactive"}
{"Target gene": "SLC1A5", "mean z-score": 0.02, "z-score, replicate A": 0.02, "z-score, replicate B": 0.16, "z-score, replicate C": -0.12, "activity call": "inactive"}
